# Laboratory results reported in patent US20120258127A1 (priority 2010, published 2012).
# System: PBMC from vaccinated and challenged pigs
# Experiment: Specificity of IFN-γ responses: PBMC stimulation with viruses, recombinant proteins, peptide pools and peptides
# Format: cell-based
# Conditions: titrations of individual peptides against PBMC from an individual animal
sequence,measurement,value
NKYFEPRDSYFQQYML,Recognition of individual antigenic peptides (IFN-γ),recognition
